From patent publication US11078250B2, “High-activity long-acting hypoglycemic fusion protein as well as preparation method and medical application thereof” (China Pharmaceutical University, priority 2016, dated 2021)

Assay: Expression in E. coli BL21 (DE3), 12% SDS-PAGE of broken cell supernatant
Details: lactose induction 25° C. 15 h, supernatant of broken cell solution

Substance | Soluble expression in E. coli (band at about 30 KD in supernatant)
EX-hIgG1Fc: fusion protein of wild Exendin-4, linker peptide, natural human IgG1 hinge region and constant regions CH2 and CH3; SEQ ID NO: 13 | cannot be expressed in a soluble form
EX-L21K-mhIgG1Fc: fusion protein of Exendin-4 mutant EX-L21K, Gly-rich linker peptide, optimally mutated human IgG1 hinge region and constant regions CH2 and CH3; SEQ ID NO: 11 | expressed in a soluble form
